Legend:
Assay in all cases: CytoSPAR BLAST antibiotic susceptibility test
Assay type in all cases: cell-based
E. coli ATCC 25922 = settings: for Dilution Difference (BLAST-rBMD): Table 7; for Dilution Difference (BLAST-rBMD) Isolates / Dilution Difference (BLAST-rBMD) Spiked Urine: Table 8
Excerpt: (§1) The disclosed technology, which is referred to as the CytoSPAR BLAST (Bacteria Labeling Antibiotic Susceptibility Test) system, is used to quantitatively assess bacterial minimal inhibitory concentration of antibiotics for in vitro susceptibility testing. Used as an aid in diagnosis for clinicians in determining potential treatment options for patients suspected of having a microbial infection, BLAST is intended to determine susceptibility of microorganisms to the listed antibiotics (or other antimicrobials) according to manufacturer's standards. The system is intended for use with clinical isolates from liquid culture and colonies grown on agar (solid medium) or directly from urine samples. Certain implementations of BLAST determine antibiotic susceptibility for a wide range of bacteria obtained from various types of patient samples, including samples from individuals suffering from urinary tract infections. The disclosed technology includes a high-throughput assay that directly detects bacterial susceptibility to a library of frequently used antibiotics and covers both Gram-negative and Gram-positive bacteria.
(§2) The test incorporates a non-canonical amino acid (ncAA) into newly produced proteins. The incorporated ncAA includes a reactive group which allows a specific modification and detection of the living bacteria. The assay involves bacterial incorporation of the ncAA, a chemical reaction between a reactive group and a fluorophore-tagged ligand, and detection of the newly fluorescent-tagged bacteria using a fluorescent plate reader or functionally similar device. The ncAA is added to bacterial growth media and is incorporated into newly synthesized bacterial proteins. The reactive groups on the ncAA are not naturally found in bacteria and act as a specific reactive group for bacteria undergoing active protein synthesis. […] The entire process is performed in a microtiter filter plate for high-throughput scale-up. Alternatively, a normal 96-well plate can also be used in which case centrifugation is used to wash the plate instead of filtration.
(§3) In an example embodiment, bacterial samples are first diluted and incubated in acclimatization media. After treatment with one or more antimicrobials, the ncAA is added and is taken up by living bacteria during protein biosynthesis in a process called labeling. […] The Click-Chemistry reaction between the alkyne group of the ncAA and the azide group of the fluorophore-tagged ligand requires the presence of copper in the reduced state-copper (I). In other implementations, the functional groups of the click chemistry reaction can be changed so that the ncAA has the azide group and the dye has the alkyne group. […] Other reducing agents may be used in the BLAST assay, for example, aldoses (sugars) including glyceraldehyde, glucose, and ribose to replace sodium ascorbate. Likewise, alternate chelators may be used (e.g., histidine in place of BTTAA). In some implementations, metal-free click chemistry reactions are performed without using copper.
(§4) Using the BLAST system, tests can be performed on isolates or direct urine samples. Isolates may be from urine, blood, or other body fluids. Isolated bacteria may be either Gram-positive or Gram-negative. In an example implementation, living bacterial samples in acclimatization media (Buffer A) are distributed in a microtiter filter plate, wherein certain predetermined wells include antibiotics of interest at different concentrations. These antibiotics are arrayed with increasing concentrations in adjacent wells so that the bacterial response can be measured against each specific concentration. The response is measured quantitatively, and a value that corresponds to the ability of the bacteria to metabolize and grow is measured.

P. mirabilis LSI 4933 = settings: Table 7
Excerpt: as §1, §2, §3, §4

E. coli LSI 770 = settings: for Dilution Difference (BLAST-rBMD): Table 7; for Dilution Difference (BLAST-rBMD) Isolates / Dilution Difference (BLAST-rBMD) Spiked Urine: Table 8
Excerpt: as §1, §2, §3, §4

P. mirabilis LSI 4698 = settings: Table 7
Excerpt: as §1, §2, §3, §4

S. aureus ATCC 29213 = settings: for Dilution Difference (BLAST-rBMD): Table 7; for Dilution Difference (BLAST-rBMD) Isolates / Dilution Difference (BLAST-rBMD) Spiked Urine: Table 8

SMILES	Dilution Difference (BLAST-rBMD) (E. coli ATCC 25922)	Dilution Difference (BLAST-rBMD) Isolates (E. coli ATCC 25922)	Dilution Difference (BLAST-rBMD) Spiked Urine (E. coli ATCC 25922)	Dilution Difference (BLAST-rBMD) (P. mirabilis LSI 4933)	Dilution Difference (BLAST-rBMD) (E. coli LSI 770)	Dilution Difference (BLAST-rBMD) Isolates (E. coli LSI 770)	Dilution Difference (BLAST-rBMD) Spiked Urine (E. coli LSI 770)	Dilution Difference (BLAST-rBMD) (P. mirabilis LSI 4698)	Dilution Difference (BLAST-rBMD) (S. aureus ATCC 29213)	Dilution Difference (BLAST-rBMD) Isolates (S. aureus ATCC 29213)	Dilution Difference (BLAST-rBMD) Spiked Urine (S. aureus ATCC 29213)
C[C@H]1c2cccc(O)c2C(=O)C2=C(O)[C@]3(O)C(=O)C(C(N)=O)=C(O)[C@@H](N(C)C)[C@@H]3[C@@H](O)[C@@H]21 [Doxycycline, doxycycline]	−2	−2	−1	−2	0	0	0	−3	−2	−2	−2
C[C@H]1COc2c(N3CCN(C)CC3)c(F)cc3c(=O)c(C(=O)O)cn1c23 [Levofloxacin, levofloxacin]	−1	−1	−1	0	0	0	0	−1	0	0	0
Cc1nnc(SCC2=C(C(=O)O)N3C(=O)[C@@H](NC(=O)Cn4cnnn4)[C@H]3SC2)s1 [Cefazolin, cefazolin]	−1	1	−1	−1	both off-scale	both off-scale	both off-scale	−2	−2	−2	−1
